Results as given in patent US10570097B2, “Antimicrobial imidazolium compounds” (AGENCY FOR SCIENCE, TECHNOLOGY AND RESEARCH, priority 2014, dated 2020).
Marks after values point to notes of the source that are not given here.

System: rat red blood cells (RBCs)
Assay: Hemolysis
Format: cell-based
Conditions: HC10/GM
Procedure: Before these materials can be used in systemic applications, selectivity of these materials for microbial cells over mammalian cells should also be considered. Such selectivity is often determined by observation of hemolysis. Hemolysis was performed in the following manner, fresh rat red blood cells (RBCs) were diluted with PBS buffer to give an RBC stock suspension (4 vol % blood cells). A 100 μL aliquot of RBC stock was added to a 96-well plate containing […] oligomer compound stock solutions of various concentrations (serial 2-fold dilution in PBS). After 1 h incubation at 37° C., The contents of each well was pipetted into a microcentrifuge tube and then centrifuged at 4000 rpm for 5 min. Hemolytic activity was determined as a function of hemoglobin release by measuring OD576 of […] of the supernatant. A control solution that contained only PBS was used as a reference for 0% hemolysis. 100% hemolysis was measured by adding 0.5% Triton-X to the RBCs. [formula] The selectivity of the materials was also further assessed, by calculating the selectivity indices (SI), a measure and a comparison of safety and efficacies of each oligomer compound. […] Herein, the more stringent control of HC10 value was chosen over the HC50 value often reported in literature.

First: CCCCCCCCCCCCCCCC[n+]1ccn(Cc2ccc(C[n+]3ccn(Cc4ccc(C[n+]5ccn(Cc6ccccc6Cn6cc[n+](Cc7ccc(Cn8cc[n+](Cc9ccc(Cn%10cc[n+](CCCCCCCCCCCCCCCC)c%10)cc9)c8)cc7)c6)c5)cc4)c3)cc2)c1.[Br-].[Br-].[Cl-].[Cl-].[Cl-].[Cl-] [Compound 6]
Second: CCCCCCCCCCCCCC[n+]1ccn(Cc2ccc(C[n+]3ccn(Cc4ccc(C[n+]5ccn(Cc6ccccc6Cn6cc[n+](Cc7ccc(Cn8cc[n+](Cc9ccc(Cn%10cc[n+](CCCCCCCCCCCCCC)c%10)cc9)c8)cc7)c6)c5)cc4)c3)cc2)c1.[Br-].[Br-].[Cl-].[Cl-].[Cl-].[Cl-] [Compound 5]
The “Selectivity Index” value of the first is lower: 0.83 for the first, 1.15 for the second.

With `CCCCCCCCCCCC[n+]1ccn(Cc2ccc(C[n+]3ccn(Cc4ccc(C[n+]5ccn(Cc6ccccc6Cn6cc[n+](Cc7ccc(Cn8cc[n+](Cc9ccc(Cn%10cc[n+](CCCCCCCCCCCC)c%10)cc9)c8)cc7)c6)c5)cc4)c3)cc2)c1.[Br-].[Br-].[Cl-].[Cl-].[Cl-].[Cl-]` [Compound 4] the “Selectivity Index” value was 2.81.

With `c1ccc(C[n+]2ccn(Cc3ccc(C[n+]4ccn(Cc5ccc(C[n+]6ccn(Cc7ccccc7Cn7cc[n+](Cc8ccc(Cn9cc[n+](Cc%10ccc(Cn%11cc[n+](Cc%12ccccc%12)c%11)cc%10)c9)cc8)c7)c6)cc5)c4)cc3)c2)cc1` [IBN-1, reference compound] the “Selectivity Index” value was >>1000^b.
